Results of unrelated studies side by side (data: NIAID ChemDB).

Shared fields: growth or infection tests; agent: Mycobacterium avium complex; read-out: MIC

Blank or dashed fields: not listed here.

compound	strain or isolate	result
O=C1c2cc(I)ccc2-n2c1nc1cc(Cl)cc(Cl)c1c2=O	19075	1 µg/mL
OC(c1cc(-c2ccc(Cl)cc2)nc2c1ccc1ccccc12)C1CCCCN1	-	1–2 µg/mL
CC(=O)NC[C@H]1CN(c2ccc(-c3ccncc3)cc2)C(=O)O1	108	0.8 µg/mL
CCCCCCCCCCCCNNC(=O)O[C@H]1[C@H](O[C@@H]2[C@@H](C)[C@H](O[C@H]3C[C@@](C)(OC)[C@@H](OC(C)=O)[C@H](C)O3)[C@@H](C)C(=O)O[C@H](CC)[C@@](C)(O)[C@H](O)[C@@H](C)/C(=N/OCCCC3CCCCC3)[C@H](C)CC2(C)O)O[C@H](C)C[C@@H]1N(C)C	20039 (clarithromycin-susceptible)	50 µg/mL
CO/C(=N\N=C\c1cccc(F)c1)c1ccncc1	12592 PI	>10 µg/mL
O=C(NCCCl)N1CCC(CN=c2cc3n(-c4ccc(Cl)cc4)c4ccccc4nc-3cc2Nc2ccc(Cl)cc2)CC1	109	8 µg/mL
CO[C@H]1/C=C/O[C@@]2(C)Oc3c(C)c(O)c4c(=O)c(c5oc6cc(N7CCN(CC(C)C)CC7)cc(=O)c6nc5c4c3=C2O)NC(=O)/C(C)=C\C=C\[C@H](C)[C@H](O)[C@@H](C)[C@@H](O)[C@@H](C)[C@H](OC(C)=O)[C@@H]1C	N-319 (HIV-)	0.1 µg/mL
OC(c1cc(C2CC3CCC2CC3)nc2c(Cl)cc(Cl)cc12)C1CCCCN1	-	1–2 µg/mL
CCCCCCCCCCCCCCN(C)C(=O)O[C@H]1C(O[C@@H]2[C@@H](C)[C@H](O[C@H]3C[C@@](C)(OC)[C@@H](OC(C)=O)[C@H](C)O3)[C@@H](C)C(=O)O[C@H](CC)[C@@](C)(O)[C@H](O)[C@@H](C)/C(=N/OCCCC3CCCCC3)[C@H](C)CC2(C)O)O[C@H](C)C[C@@H]1N(C)C	20034	0.1 µg/mL
O=C1c2ccccc2-n2c1nc1ncccc1c2=O	19075	25 µg/mL
CC[C@H]1OC(=O)[C@H](C)[C@@H](O[C@H]2C[C@@](C)(OC)[C@@H](OC(C)=O)[C@H](C)O2)[C@H](C)[C@@H](OC2O[C@H](C)C[C@H](N(C)C)[C@H]2OC(N)=O)C(C)(O)C[C@@H](C)/C(=N\OCCCC2CCCCC2)[C@H](C)[C@@H](O)[C@]1(C)O	20096	>50 µg/mL
O=C1c2cc(I)ccc2-n2c1nc1ncccc1c2=O	101	5 µg/mL
CCCCNC(=O)O[C@H]1C(O[C@@H]2[C@@H](C)[C@H](O[C@H]3C[C@@](C)(OC)[C@@H](OC(C)=O)[C@H](C)O3)[C@@H](C)C(=O)O[C@H](CC)[C@@](C)(O)[C@H](O)[C@@H](C)/C(=N/OCCCC3CCCCC3)[C@H](C)CC2(C)O)O[C@H](C)C[C@@H]1N(C)C	20034	0.1 µg/mL
CC[C@H]1OC(=O)[C@H](C)[C@@H](O[C@H]2C[C@@](C)(OC)[C@@H](O)[C@H](C)O2)[C@H](C)[C@@H](O[C@@H]2O[C@H](C)C[C@H](N(C)C)[C@H]2O)[C@](C)(O)C[C@@H](C)CN(C)[C@H](C)[C@@H](O)[C@]1(C)O	MO-1	32 µg/mL
O=C1c2cc(I)ccc2-n2c1nc1c(Br)cc(Br)c(Cl)c1c2=O	19075	1 µg/mL
CC(C)N=c1cc2n(-c3ccc(Cl)cc3)c3ccccc3nc-2cc1Nc1ccc(Cl)cc1	1017	0.125 µg/mL
CC[C@H]1OC(=O)[C@H](C)[C@@H](O[C@H]2C[C@@](C)(OC)[C@@H](O)[C@H](C)O2)[C@H](C)[C@@H](O[C@@H]2O[C@H](C)C[C@H](N(C)C)[C@H]2O)[C@](C)(O)C[C@@H](C)/C(=N\OCOCCOC)[C@H](C)[C@@H](O)[C@]1(C)O	Isolate 89-0733	2 µg/mL
CC[C@H]1OC(=O)[C@H](C)[C@@H](OC2C[C@@](C)(OC)[C@@H](O)[C@H](C)O2)[C@H](C)[C@@H](O[C@@H]2O[C@H](C)C[C@H](N(C)C)[C@H]2O)C(C)(OC)C[C@@H](C)/C(=N\OCCCOc2ccccc2)[C@H](C)[C@@H](O)[C@]1(C)O	20096 (clarithromycin-resistant)	6.25 µg/mL
NNC(=O)c1ccncc1	13013	20–25 µg/mL
CCCCCC/C=C/c1ccc2c(c1)C(=O)c1nc3ccncc3c(=O)n1-2	19075	0.06 µg/mL
CC1COc2c(N3CCN(C)CC3)c(F)cc3c(=O)c(C(=O)O)cn1c23	ATCC 35718	>8 µg/mL
CN(C)C/C=C(\c1ccc(O)cc1)c1ccc(-c2ccccc2)cc1	-	98 µg/mL
CC[C@H]1OC(=O)[C@H](C)[C@@H](O[C@H]2C[C@@](C)(OC)[C@@H](OC(C)=O)[C@H](C)O2)[C@H](C)[C@@H](O[C@@H]2O[C@H](C)C[C@H](N(C)C)[C@H]2O)C(C)(O)C[C@@H](C)/C(=N\OCCCCOc2ccccc2)[C@H](C)[C@@H](O)[C@]1(C)O	20096 (clarithromycin-resistant)	3.13 µg/mL
COc1ccc(C(F)(F)F)cc1NCc1cnc2nc(N)nc(N)c2c1C	NJ-168 serovar 1	≤0.128 µg/mL
CO[C@H]1/C=C/O[C@@]2(C)Oc3c(C)c(O)c4c(O)c(c(/C=N/N5CCN(C/C=C/c6ccccc6)CC5)c(O)c4c3C2=O)NC(=O)/C(C)=C\C=C\[C@H](C)[C@H](O)[C@@H](C)[C@@H](O)[C@@H](C)[C@H](OC(C)=O)[C@@H]1C	N-260	0.78 µg/mL
CO/C(=N\N=C\c1ccccc1)c1ccncc1	12592 PI	>20 µg/mL
CC[C@H]1OC(=O)[C@H](C)[C@@H](O[C@H]2C[C@@](C)(OC)[C@@H](OC(C)=O)[C@H](C)O2)[C@H](C)[C@@H](OC2O[C@H](C)C[C@H](N(C)C)[C@H]2OC(=O)NC)C(C)(O)C[C@@H](C)/C(=N\OCCCC2CCCCC2)[C@H](C)[C@@H](O)[C@]1(C)O	20045	3.13 µg/mL
CC1CN(c2cc3c(cc2F)c(=O)c(C(=O)O)cn3-c2ccc(F)cc2F)CCN1	ATCC 35718	>8 µg/mL
CO/C(=N\N=C\c1ccc(F)cc1)c1ccncc1	12592 PI	>5 µg/mL
CCCCCC/C=C/c1ccc2nc3n(c(=O)c2c1)-c1ccc(Cl)cc1C3=O	19075	1 µg/mL
CC[C@H]1OC(=O)[C@H](C)[C@@H](OC2C[C@@](C)(OC)[C@@H](OC(=O)c3ccccc3)[C@H](C)O2)[C@H](C)[C@@H](O[C@@H]2O[C@H](C)C[C@H](N(C)C)[C@H]2O)C(C)(O)C[C@@H](C)/C(=N\OCCCOc2ccccc2)[C@H](C)[C@@H](O)[C@]1(C)O	20096 (clarithromycin-resistant)	1.56 µg/mL
CO[C@H]1/C=C/O[C@@]2(C)Oc3c(C)c(O)c4c(O)c(c5c(c4c3C2=O)NC2(CCN(CC(C)C)CC2)N=5)=NC(=O)/C(C)=C\C=C\[C@H](C)[C@H](O)[C@@H](C)[C@@H](O)[C@@H](C)[C@H](OC(C)=O)[C@@H]1C	D-3	0.5 µg/mL
CN(C)C/C=C(\c1ccc(Cl)cc1)c1ccc(-c2ccc(Br)cc2)cc1	-	37.5 µg/mL
CC[C@H]1OC(=O)[C@H](C)[C@@H](OC2C[C@@](C)(OC)[C@@H](OC(C)=O)[C@H](C)O2)[C@H](C)[C@@H](O[C@@H]2O[C@H](C)C[C@H](N(C)C)[C@H]2O)C(C)(O)C[C@@H](C)/C(=N\OCCCOc2ccccc2)[C@H](C)[C@@H](O)[C@]1(C)O	20096 (clarithromycin-resistant)	0.78 µg/mL
Cc1c(F)c(N2CCNC(C)C2)cc2c1c(=O)c(C(=O)O)cn2C1CC1	clinical strain 1	8 µg/mL
CC(C)NC(=O)N1CCC(CN=c2cc3n(-c4ccc(Cl)cc4)c4ccccc4nc-3cc2Nc2ccc(Cl)cc2)CC1	101	8 µg/mL
CC1CN(c2cc3c(cc2F)c(=O)c(C(=O)O)cn3-c2ccc(F)cc2F)CCN1	MO-1	2 µg/mL
CO/C(=N\N=C\c1ccc(OC)c(OC)c1)c1ccncc1	12592 PI	>20 µg/mL
CCc1nc(N)nc(N)c1-c1ccc(Cl)cc1	DW27	32 µg/mL
CCN=c1cc2n(-c3ccc(Cl)cc3)c3ccccc3nc-2cc1Nc1ccc(Cl)cc1	453	0.25 µg/mL
COc1cc(OC)cc(N(C)Cc2cnc3nc(N)nc(N)c3c2C)c1	NJ-168 serovar 4	≤0.128 µg/mL
O=C1c2cc(Cl)ccc2-n2c1nc1cc(F)ccc1c2=O	101	<0.2 µg/mL
COc1cccc2c1nc1cccc(OC)c1[n+]2[O-]	109	≥16 µg/mL
CN(C)CC=C(c1ccccc1)c1ccc(-c2ccc(Br)cc2)cc1	-	40 µg/mL
C/C(=N\NC(=O)c1ccncc1)c1ccc(Cl)c(Cl)c1	12592 PI	>10 µg/mL
CN(C)C/C=C(\c1ccc(O)cc1)c1ccc(-c2ccc(Br)cc2)cc1	-	39 µg/mL
COc1ccc(C)c(NCc2cnc3nc(N)nc(N)c3c2C)c1	NJ-168 serovar 4	≤0.128 µg/mL
CC1(C)N=C(N)N=C(N)N1OCCCOc1cc(Cl)c(Cl)cc1Cl	DW9	2 µg/mL
CC(C)N=C(N)/N=C(\N)NOCCCOc1cc(Cl)c(Cl)cc1Cl	1753	32 µg/mL
CO[C@H]1/C=C/O[C@@]2(C)Oc3c(C)c(O)c4c(O)c(c5c(c4c3C2=O)NC2(CCN(CC(C)C)CC2)N=5)=NC(=O)/C(C)=C\C=C\[C@H](C)[C@H](O)[C@@H](C)[C@@H](O)[C@@H](C)[C@H](OC(C)=O)[C@@H]1C	SK095	0.125 µg/mL
CC[C@H]1OC(=O)[C@H](C)[C@@H](OC2C[C@@](C)(OC)[C@@H](O)[C@H](C)O2)[C@H](C)[C@@H](O[C@@H]2O[C@H](C)C[C@H](N(C)C)[C@H]2O)C(C)(O)C[C@@H](C)/C(=N\OCCCCCc2ccccc2)[C@H](C)[C@@H](O)[C@]1(C)O	20096 (clarithromycin-resistant)	6.25 µg/mL
CO[C@H]1/C=C/O[C@@]2(C)Oc3c(C)c(O)c4c(O)c(c5c(c4c3C2=O)NC2(CCN(CC(C)C)CC2)N=5)=NC(=O)/C(C)=C\C=C\[C@H](C)[C@H](O)[C@@H](C)[C@@H](O)[C@@H](C)[C@H](OC(C)=O)[C@@H]1C	1408-2	0.25 µg/mL
CC[C@H]1OC(=O)[C@H](C)[C@@H](OC(=O)Cc2ccccc2)[C@H](C)[C@@H](O[C@@H]2O[C@H](C)C[C@H](N(C)C)[C@H]2O)C(C)(O)C[C@@H](C)/C(=N\OCCCOc2ccccc2)[C@H](C)[C@@H](O)[C@]1(C)O	20039 (clarithromycin-susceptible)	3.13 µg/mL
CC[C@H]1OC(=O)[C@H](C)[C@@H](O[C@H]2C[C@@](C)(OC)[C@@H](O)[C@H](C)O2)[C@H](C)[C@@H](O[C@@H]2O[C@H](C)C[C@H](N(C)C)[C@H]2O)[C@](C)(O)C[C@@H](C)C(=O)[C@H](C)[C@@H](O)[C@]1(C)O	ATCC 35718	>8 µg/mL
CC[C@H]1OC(=O)[C@H](C)[C@@H](O[C@H]2C[C@@](C)(OC)[C@@H](OC(C)=O)[C@H](C)O2)[C@H](C)[C@@H](OC2O[C@H](C)C[C@H](N(C)C)[C@H]2OC(=O)NCCCCCCCCCCCCCCN(C)C)C(C)(O)C[C@@H](C)/C(=N\OCCCC2CCCCC2)[C@H](C)[C@@H](O)[C@]1(C)O	20092	0.78 µg/mL
CC[C@H]1OC(=O)[C@H](C)[C@@H](O[C@H]2C[C@@](C)(OC)[C@@H](OC(C)=O)[C@H](C)O2)[C@H](C)[C@@H](O[C@@H]2O[C@H](C)C[C@H](N(C)C)[C@H]2OC(=O)NNc2ccccc2)C(C)(O)C[C@@H](C)/C(=N\OCCCC2CCCCC2)[C@H](C)[C@@H](O)[C@]1(C)O	20096 (clarithromycin-resistant)	0.78 µg/mL
CN[C@@H]1[C@@H](O)C(O[C@@H]2[C@@H](O)[C@H](OC3O[C@H](CN)[C@@H](O)[C@H](O)[C@H]3O)[C@@H](N)C[C@H]2NC(=O)[C@@H](O)CN)OC[C@]1(C)O	J16	12.5 µg/mL

The last 5 rows once more:

{"compound": "CC[C@H]1OC(=O)[C@H](C)[C@@H](OC(=O)Cc2ccccc2)[C@H](C)[C@@H](O[C@@H]2O[C@H](C)C[C@H](N(C)C)[C@H]2O)C(C)(O)C[C@@H](C)/C(=N\\OCCCOc2ccccc2)[C@H](C)[C@@H](O)[C@]1(C)O", "strain or isolate": "20039 (clarithromycin-susceptible)", "result": "3.13 µg/mL"}
{"compound": "CC[C@H]1OC(=O)[C@H](C)[C@@H](O[C@H]2C[C@@](C)(OC)[C@@H](O)[C@H](C)O2)[C@H](C)[C@@H](O[C@@H]2O[C@H](C)C[C@H](N(C)C)[C@H]2O)[C@](C)(O)C[C@@H](C)C(=O)[C@H](C)[C@@H](O)[C@]1(C)O", "strain or isolate": "ATCC 35718", "result": ">8 µg/mL"}
{"compound": "CC[C@H]1OC(=O)[C@H](C)[C@@H](O[C@H]2C[C@@](C)(OC)[C@@H](OC(C)=O)[C@H](C)O2)[C@H](C)[C@@H](OC2O[C@H](C)C[C@H](N(C)C)[C@H]2OC(=O)NCCCCCCCCCCCCCCN(C)C)C(C)(O)C[C@@H](C)/C(=N\\OCCCC2CCCCC2)[C@H](C)[C@@H](O)[C@]1(C)O", "strain or isolate": "20092", "result": "0.78 µg/mL"}
{"compound": "CC[C@H]1OC(=O)[C@H](C)[C@@H](O[C@H]2C[C@@](C)(OC)[C@@H](OC(C)=O)[C@H](C)O2)[C@H](C)[C@@H](O[C@@H]2O[C@H](C)C[C@H](N(C)C)[C@H]2OC(=O)NNc2ccccc2)C(C)(O)C[C@@H](C)/C(=N\\OCCCC2CCCCC2)[C@H](C)[C@@H](O)[C@]1(C)O", "strain or isolate": "20096 (clarithromycin-resistant)", "result": "0.78 µg/mL"}
{"compound": "CN[C@@H]1[C@@H](O)C(O[C@@H]2[C@@H](O)[C@H](OC3O[C@H](CN)[C@@H](O)[C@H](O)[C@H]3O)[C@@H](N)C[C@H]2NC(=O)[C@@H](O)CN)OC[C@]1(C)O", "strain or isolate": "J16", "result": "12.5 µg/mL"}

Two numbers with a dash give a range or band. Lines come from different laboratories, so protocols vary.